From patent publication US20200140526A1 (UNIVERSITY OF ROCHESTER, published 2020)

What was measured:
Assay in all cases: cell-based or functional assay
[1] = target: MARM 1 (Influenza A virus (H1N1))
[2] = target: T1, A/Texas/36/91 H1N1 (TX H1N1) HA (influenza A virus A/Texas/36/91 H1N1)
[3] = target: T1, A/Texas/36/91 H1N1 (TX H1N1) HA; remark: listed apart in the source
[4] = target: A/Puerto Rico/08/1934 H1N1 (PR8 H1N1) HA (influenza A virus A/Puerto Rico/08/1934 …, UniProt P03452 18-528)
[5] = target: T2, pH1N1 (A/California/04/2009) HA, wild type, full length (influenza A virus A/California/04/2009 …)
[6] = target: A/New Caledonia/20/99 H1N1 (NC H1N1) HA (influenza A virus A/New Caledonia/20/99 …)
[7] = target: T2, pH1N1 (A/California/04/2009) HA, wild …; remark: listed apart in the source

B1: KPF1 human monoclonal antibody (hmAb) (antibody, V domains shown)
VH: EVQLLESGGGLVQPGGSLRISCAASGSTFGDFAMSWVRQSPGRGLEWVSVTSAGGDRTYYADSVKGRFTISRDNSKNTLYLQMNSLRGEDTAMYYCARLDSSGFHYGRPGRNWGQGTLVTVSS
VL: DIQMTHSPPSLSASVGDRITITCQASQDISYYLIWYQQKPGKAPKPLIYDASNLEAGVPSRFSASGSGTDFTLTISSLQPEDLATYYCQQYKSLPYTFGQGTKLEIK
HAI (µg/ml): least amount of hmAb that fully inhibits hemagglutination [1]: > 200 µg/mL
HAI (µg/ml): least amount of hmAb that fully inhibits hemagglutination [2]: 0.78 µg/mL
HAI (µg/ml), minimum amount of hmAb that completely inhibited hemagglutination [3]: 0.78 µg/mL
NT50 (µg/ml), microneutralization, crystal violet [3]: 1.26 µg/mL
HAI (µg/ml), minimum amount of hmAb that completely inhibited hemagglutination [4]: 50 µg/mL
HAI (µg/ml), minimum amount of hmAb that completely inhibited hemagglutination [5]: 0.78 µg/mL
NT50 (µg/ml), microneutralization, crystal violet [5]: 1.46 µg/mL
HAI (µg/ml), minimum amount of hmAb that completely inhibited hemagglutination [6]: 3.12 µg/mL
NT50 (µg/ml), microneutralization, crystal violet [6]: 4.56 µg/mL
HAI (µg/ml): least amount of hmAb that fully inhibits hemagglutination [7]: 0.39 µg/mL
NT (µg/ml): NT50 in the microneutralization assay [7]: 0.39 µg/mL
